Measured values from patent US6818219B1, “Reagent for detecting and monitoring viral infections” (Institut Pasteur de Lille, priority 1997, dated 2004).
Where “and” joins values, the source holds several entries; their conditions need not be identical. Equal values may be shown once.

How the values were obtained:
Format in all cases: binding
[1] = test system: anti-VCA human IgAs; assay: Isotype-specific ELISA with antigen in solid phase, anti-human IgA conjugate; conditions: for Specificity: 28 EBV-negative sera; for Sensitivity: 40 sera of primary-infected patients (P)
[2] = test system: anti-VCA human IgGs; assay: Isotype-specific ELISA with antigen in solid phase, anti-human IgG conjugate; conditions: for Specificity: 28 EBV-negative sera; for Sensitivity: 40 sera of primary-infected patients (P)
[3] = test system: anti-VCA human IgG-A-Ms; assay: ELISA with antigen in solid phase, human sera, anti-human IgG-A-M conjugate; conditions: Ig(G-A-M); for Specificity: 28 EBV-negative sera

**Q.** “CAVDTGSGGGGQPHDTAPRGARKKQ [VCAp18/SEQ ID No. 2]” was tested. Which Specificity ([1]; coating 0.1 μg/well) did it give?
**A.** 100%

**Q.** And the Sensitivity ([1]; coating 0.1 μg/well)?
**A.** 62%

**Q.** And the Specificity ([1]; coating 1 μg/well)?
**A.** 100%

**Q.** What about the Sensitivity ([1]; coating 1 μg/well) of the same sequence?
**A.** 72%

**Q.** And the Specificity ([2]; coating 0.1 μg/well)?
**A.** 100%

**Q.** And the Sensitivity ([2]; coating 0.1 μg/well)?
**A.** 32%

**Q.** And the Specificity ([2]; coating 1 μg/well)?
**A.** 96%

**Q.** What about the Sensitivity ([2]; coating 1 μg/well) of the same sequence?
**A.** 60%

**Q.** And the Specificity ([3]; coating 0.1 μg/well)?
**A.** 100%

**Q.** And the Sensitivity ([3]; coating 0.1 μg/well, 40 sera of primary-infected patients (P))?
**A.** 60%

**Q.** What about the Sensitivity ([3]; coating 0.1 μg/well, 46 EBV-positive sera (L, healthy carriers)) of the same sequence?
**A.** 89% and 51% and 91%

**Q.** What about the Sensitivity ([3]; coating 0.1 μg/well, 46 EBV-positive sera (L, healthy carriers), listed as SEQ ID No. 2) of the same sequence?
**A.** 91%

**Q.** And the Specificity ([3]; coating 1 μg/well)?
**A.** 89% and 78%

**Q.** What about the Specificity ([3]; coating 1 μg/well, listed as SEQ ID No. 2) of the same sequence?
**A.** 89%

**Q.** And the Sensitivity ([3]; coating 1 μg/well, 40 sera of primary-infected patients (P))?
**A.** 85%

**Q.** What about the Sensitivity ([3]; coating 1 μg/well, 46 EBV-positive sera (L, healthy carriers)) of the same sequence?
**A.** 95%
